Results of unrelated studies side by side (data: NIAID ChemDB).

All rows: tests in culture; agent: HIV-1

ECn is the concentration giving n% inhibition of infection, replication or growth. a–b is a range or a potency band. Blank or dashed fields: not listed here. Lines come from different laboratories, so protocols vary.

SMILES	cell line	mutations	read by	measure	strain	value
CCOCn1c(Cc2cccc(F)c2)c(C(C)C)c(=O)[nH]c1=O	MT-4	K103N + Y181C	MTT	EC50	A17	42 µM
CCCc1c(Cc2cccc3ccccc23)n(COCCO)c(=O)[nH]c1=O	CEM	-	-	EC50	LAV	6.247 µM
CC1CC(C)CN(C(=O)Cn2cc(CS(C)(=O)=O)n3c(=O)c(O)c(C(=O)NCc4ccc(Cl)c(Cl)c4)nc23)C1	HEK 293	QHGS	luciferase	EC50	-	<0.5 µM
C#CCOc1cc(NC(=S)OC(C)C)ccc1Cl	CEM	RT-L100I	syncytia	EC50	-	14.1 µM
CC1CC(C)CN(C(=O)Cn2cc(CS(C)(=O)=O)n3c(=O)c(O)c(C(=O)NCc4ccc(F)cc4S(=O)(=O)N(C)C)nc23)C1	HEK 293	QHGS	luciferase	EC50	-	<0.5 µM
CCCc1c(Cc2ccc3ccccc3c2)n(COCc2ccccc2)c(=O)[nH]c1=O	MT-4	-	-	EC50	LAV	6.688 µM
CC[C@@H](C)OC(=S)Nc1ccc(Cl)c(C(=O)OC(C)C)c1	CEM	RT-V106A	syncytia	EC50	-	0.121 µM
CN1C(c2cccc(Br)c2)c2ccccc2S1(=O)=O	-	-	p24 / RT activity	EC50	-	0.781 µM
COc1cc2c(c3oc(=O)c(CC#N)c(C)c13)[C@@H](OC(=O)C13CCC(C)(C(=O)O1)C3(C)C)[C@@H](OC(=O)C13CCC(C)(C(=O)O1)C3(C)C)C(C)(C)O2	MT-4	-	cytopathic effect / XTT	EC50	IIIB	0.11 µM
CCN1C(C)Cn2c(=O)[nH]c3cc(Cl)cc(c32)S1(=O)=O	MT-4	-	cytopathic effect / MTT	EC50	-	>130 µM
C=CCOCn1c(Cc2cccc(C(F)(F)F)c2)c(CC)c(=O)[nH]c1=O	MT-4	K103N + Y181C	MTT	EC50	A17	19 µM
Cc1c(Cc2ccc3ccccc3c2)n(COCc2ccccc2)c(=O)[nH]c1=O	CEM	-	-	EC50	LAV	3.444 µM
COc1cc2ccc3c(c2oc1=O)[C@@H](OC(=O)C12CCC(C)(C(=O)O1)C2(C)C)[C@@H](OC(=O)C12CCC(C)(C(=O)O1)C2(C)C)C(C)(C)O3	H9	-	p24	EC50	IIIB	0.01043 µM
CC1CC(C)CN(C(=O)Cn2cc(N3CCCS3(=O)=O)n3c(=O)c(O)c(C(=O)NCc4ccc(F)cc4S(=O)(=O)N(C)C)nc23)C1	HEK 293	QHGS	luciferase	EC50	-	<0.5 µM
CCOC(=O)c1cc(NC(=S)OC(C)C)ccc1Cl	CEM	RT-E138K	syncytia	EC50	-	2.485 µM
CC1(C)Oc2ccc3cc(CC#N)c(=O)oc3c2[C@@H](OC(=O)C23CCC(C)(C(=O)O2)C3(C)C)[C@H]1OC(=O)C12CCC(C)(C(=O)O1)C2(C)C	H9	-	p24	EC50	IIIB	0.0002 µM
O=C(c1c(O)cc(O)cc1O)c1c(-c2ccc(O)cc2)oc2cc(O)c3c(c12)O[C@H](c1ccc(O)cc1)[C@@H](O)C3	MOLT-4/HIV-1(IIIB) + MOLT-4	-	p24	EC50	IIIB	>30 µg/mL
COC(=S)Nc1ccc(Cl)c(C(=O)OC(C)C)c1	CEM	RT-Y181C	syncytia	EC50	-	≥34.75 µM
CN1C(c2ccc(Cl)cc2)c2ccccc2S1(=O)=O	-	-	p24 / RT activity	EC50	-	19.6 µM
COc1cc2c(c3oc(=O)c(CBr)c(C)c13)[C@@H](OC(=O)C13CCC(C)(C(=O)O1)C3(C)C)[C@@H](OC(=O)C13CCC(C)(C(=O)O1)C3(C)C)C(C)(C)O2	H9	-	p24	EC50	IIIB	1.62 µM
CN1CCN(C(=O)c2ccc3c(=O)c4ccccc4[nH]c3c2)CC1	CEM	RT-Y181C	syncytia	EC50	-	1.347 µM
O=c1cc(-c2cccc3c2Sc2ccccc2S3)oc(N2CCOCC2)c1	C8166	-	cytopathic effect / XTT	EC50	RT-L74V M184V	5.2 µM
CO/N=C/c1cc(NC(=S)OC(C)C)ccc1Cl	CEM	RT-L100I	syncytia	EC50	-	9.066 µM
C=CCOCn1c(Cc2cc(C(F)(F)F)cc(C(F)(F)F)c2)c(C(C)C)c(=O)[nH]c1=O	MT-4	-	MTT	EC50	N119 (Y181C)	13 µM
CCCCCCCCCCCCCCCCCC1O[C@@H](CO)[C@H](O)[C@H](O)[C@@H]1O	TZM-bl	-	luciferase	EC50	89.6	9.72 µM
CCOCn1c(Cc2ccc3ccccc3c2)c(CC)c(=O)[nH]c1=O	CEM	-	-	EC50	LAV	5.116 µM
COc1ccnc2[nH]cc(C(=O)C(=O)N3C4CCC3CN(C(=O)c3ccccc3)C4)c12	TZM-bl	-	luciferase	EC99	ZM214	144 µM
C[C@H]1CN(C(=O)Cn2ccn3c(=O)c(O)c(-c4ncc(Cc5ccc(F)cc5S(=O)(=O)N(C)C)s4)nc23)C[C@H](C)O1	HEK 293	QHGS	luciferase	EC50	-	<0.5 µM
CC(C)OC(=S)Nc1ccc(Cl)c(C(=O)OC(C)(C)C)c1	CEM	RT-E138K	syncytia	EC50	-	4.244 µM
Cn1cc(C(=O)O)c(=O)c2cc(F)c(N3CC=C(c4ccccc4)CC3)c(C(F)(F)F)c21	PBMC	-	p24	EC50	BaL	~0.108 µM
Cc1ccnc2c1NC(=O)c1cccnc1N2C1CC1	TZM-bl	Y188L	p24 / ELISA	EC50	SF33	10 µM
COc1ccnc2[nH]cc(C(=O)C(=O)N3C4CCCC3CN(C(=O)c3ccccc3)C4)c12	TZM-bl	-	luciferase	EC90	SF162	42 µM
CCc1c(Cc2cccc3ccccc23)n(COC)c(=O)[nH]c1=O	CEM	-	-	EC50	LAV	0.494 µM
COCCOC(=S)Nc1ccc(Cl)c(C(=O)OC(C)C)c1	CEM	RT-E138K	syncytia	EC50	-	18.08 µM
CCCc1cc(=O)oc2c3c(c4c(c12)OC(C)(C)CC4)O[C@@H](C)[C@H](C)[C@@H]3O	CEM + CEM-SS	RT-K103N Y181C	cytopathic effect / XTT	EC50	A17	0.8 µM
CCOC(=O)COc1cc(NC(=S)OC(C)C)ccc1Cl	CEM	RT-E138K	syncytia	EC50	-	15.06 µM
C=C(C)CN1C(C)C(=O)Nc2ccc(Cl)cc2S1(=O)=O	MT-4	-	cytopathic effect / MTT	EC50	-	17 µM
CCc1c(Cc2ccc3ccccc3c2)n(COCc2ccccc2)c(=O)[nH]c1=O	MT-4	-	-	EC50	LAV	1.449 µM
CN1C(c2cccc(Cl)c2)c2ccccc2S1(=O)=O	-	-	p24 / RT activity	EC50	-	0.38 µM
O=C(O)c1cn(-c2ccc(Cn3cncn3)cc2)c2c(OC(F)F)c(N3CC=C(c4ccccc4)CC3)c(F)cc2c1=O	MOLT-4	-	cytopathic effect / MTT	EC50	-	0.009 µM
CCOC(=O)C(C)N(CC=C(C)C)S(=O)(=O)c1cc(Cl)ccc1N	MT-4	-	cytopathic effect / MTT	EC50	-	2 µM
CC1=C(C(=O)Nc2ccc(Cl)c(C(=O)OC(C)C)c2)SCCO1	CEM	RT-K101E	-	EC50	IIIB	0.042 µM
CCc1c(Cc2cccc3ccccc23)n(COCc2ccccc2)c(=O)[nH]c1=O	CEM	-	-	EC50	LAV	0.042 µM
C[C@H]1CN(C(=O)Cn2ccn3c(=O)c(O)c(-c4ncc(Cc5ccc(F)c(Cl)c5)s4)nc23)C[C@H](C)O1	HEK 293	-	luciferase	EC50	-	0.1–1 µM
C#C[C@@]1(COP(=O)(O)OP(=O)(O)OP(=O)(O)O)C=C[C@H](n2cc(C)c(=O)[nH]c2=O)O1	TZM-bl	M184V	luciferase	EC50	NL4-3	1.7 µM
CC(C)OC(=S)Nc1ccc(Cl)c(C(=O)OCC[Si](C)(C)C)c1	CEM	-	syncytia	EC50	IIIB	0.535 µM
CN1CCN(C(=O)Cn2ccn3c(=O)c(O)c(-c4ncc(Cc5ccc(F)cc5)s4)nc23)CC1	HEK 293	N155H/E92Q	luciferase	EC50	-	0.1–1 µM
CC(C)OC(=S)Nc1ccc(Cl)c(C(=O)OCC(F)(F)F)c1	CEM	RT-L100I	syncytia	EC50	-	21.08 µM
Nc1ccn([C@H]2S[C@@H](CO)C=C2F)c(=O)n1	PBMC	-	RT activity	EC50	LAI	<11.9 µM
COc1ccc(NC(=S)OC(C)C)cc1CC(=O)OC(C)C	CEM	RT-V106A	syncytia	EC50	-	0.739 µM
CCN1C(C)Cn2c(=S)[nH]c3cc(Cl)cc(c32)S1(=O)=O	MT-4	-	cytopathic effect / MTT	EC50	-	46 µM
CC(C)OC(=S)Nc1ccc(Cl)c(C(=O)OC2CC2)c1	CEM	RT-V106A	syncytia	EC50	-	6.373 µM
C=C1CN(S(=O)(=O)c2ccc(C)cc2)CCCN(Cc2ccccc2)CCCN(S(=O)(=O)c2ccc(C)cc2)C1	MT-4	-	cytopathic effect	EC50	NL4-3	0.5 µM
CCCCOC(=S)Nc1ccc(Cl)c(C(=O)OC(C)C)c1	CEM	RT-V106A	syncytia	EC50	-	18.19 µM
O=C1c2c(O)cc(O)cc2O[C@]12c1c(cc(O)c3c1O[C@H](c1ccc(O)cc1)CC3)O[C@H]2c1ccc(O)cc1	MOLT-4/HIV-1(IIIB) + MOLT-4	-	p24	EC50	IIIB	>30 µg/mL
CCC(CC)COC(=O)c1cc(NC(=S)OC(C)C)ccc1Cl	CEM	RT-Y181C	syncytia	EC50	-	6.985 µM
CN1C(c2ccccc2)(C(F)(F)F)c2ccccc2S1(=O)=O	-	-	p24 / RT activity	EC50	-	0.46 µM
CC(C)OC(=O)Oc1cc(NC(=S)OC(C)C)ccc1Cl	CEM	RT-E138K	syncytia	EC50	-	3.014 µM
CCOCn1c(Cc2cccc(C(F)(F)F)c2)c(C(C)C)c(=O)[nH]c1=O	MT-4	-	MTT	EC50	EFV-resistant (K103R V179D P225H)	>54 µM